A mixed list of measured activities; the numbers were collected in NIAID ChemDB.

All rows: growth or infection tests; agent: HIV-1

a–b is a range or a potency band. Neighbouring rows are from separate reports. An empty or dashed field is not shown. ECn: concentration that inhibits the pathogen or its effect by n%.

SMILES,mutations,strain,read by,measure,cell line,result
C#C[C@]1(CO)O[C@@H](n2cnc3c(N)nc(F)nc32)C[C@@H]1O,M184V,Clinical isolate,single cycle / fluorescence,EC50,PBMC,0.00107 µM
O=C1N(Cc2ccc(CO)cc2)[C@H](Cc2ccccc2)[C@H](O)[C@@H](O)[C@@H](Cc2ccccc2)N1Cc1ccc(CO)cc1,,IIIB,p24,EC50,PBMC,0.018 µM
Cc1ccc(S(=O)(=O)N(CC(C)C)C[C@@H](O)[C@H](Cc2ccccc2)NC(=O)O[C@H]2CO[C@H]3OCC[C@H]32)cc1,M200I,IIIB,p24 / ELISA,EC50,MT-2,0.008 µM
Cc1ccc(/C=C/c2cc(C)c(Oc3ccnc(Nc4ccc(C#N)cc4)n3)c(C)c2)cc1,RES056,IIIB,MTT,EC50,MT-4,>8.51 µM
CC(=O)N1CCC(C(=O)N(CCCN2CCC(Cc3ccc(C(N)=O)cc3)CC2)c2ccc(C)c(Cl)c2)CC1,,HKW R5 clinical isolate,p24,EC50,PBMC,0.0017 µM
S=C(NCCc1cccs1)Nc1ccc(Br)cn1,RT-M41L F116S T215Y,X267-5 Clinical isolate NRTI-resistant,p24,EC50,PBMC,0.045 µM
CO[P@](=O)(c1cc(C)cc(/C=C/C#N)c1)c1c(C(N)=O)[nH]c2ccc(Cl)cc12,,NL4-3,,EC50,MT-4,0.0017 µM
Cc1ccnc2c1NC(=O)c1cccnc1N2C1CC1,TC-2,Clinical isolate,ELISA,EC50,C8166,0.0962 µM
Cc1cc(S(N)(=O)=O)ccc1NC(=O)COc1ccc(Cl)cc1C(=O)c1cc(Cl)cc(C#N)c1,RT-P236L,NNRTI-resistant (RT P236L),β-galactosidase,EC50,MAGI,0.0011 µM
C[C@H](Cn1cnc2c(N)ncnc21)OCP(=O)(O)O,,288C,p24,EC50,PBMC,0.09 µM
N#CC[C@H](C1CCCC1)n1cc(-c2ncnc3[nH]ccc23)cn1,,,p24 / ELISA,EC50,Macrophage,0.3 µM
CCN(c1nc(F)ccc1NC(C)(C)C)C1CCN(C(=O)c2cc3cc(NC(=O)N4CCN(C)CC4)ccc3[nH]2)CC1,R41K,IIIB,p24 / ELISA,EC50,MT-2,0.0261 µM
O=C(Nc1cc(S(=O)(=O)O)cc2cc(S(=O)(=O)O)c(N=Nc3ccc(N=Nc4c(S(=O)(=O)O)cc5cc(S(=O)(=O)O)cc(NC(=O)c6cccc(Cl)c6Cl)c5c4O)cc3)c(O)c12)c1ccc(Cl)cc1Cl,,A018A,,EC90,MT-2,3.16–5.53 µg/mL
Nc1ccn([C@@H]2CS[C@H](CO)O2)c(=O)n1,M184V,,p24 / ELISA,EC90,Primary T lymphocytes,>10 µM
Cc1cc(C#Cc2cccc(N)c2)cc(C)c1Oc1ccnc(NC2CCN(Cc3cccc(C(N)=O)c3)CC2)n1,,IIIB,MTT,EC50,MT-4,0.007 µM
Nc1nc(=O)n([C@@H]2CS[C@H](CO)O2)cc1F,M184V,,p24 / ELISA,EC90,Primary T lymphocytes,41.3 µM
CCCc1cc(=O)oc2c3c(c4c(c12)OC(C)(C)C=C4)O[C@H](C)[C@@H](C)[C@@H]3O,RT-L100I,Oxathiin carboxanilide-resistant RT L100I,XTT,EC50,CEM + CEM-SS,>27 µM
CC(C)(C)NC(=O)[C@@H]1CN(Cc2cccnc2)CCN1C[C@@H](O)C[C@@H](Cc1ccccc1)C(=O)N[C@H]1c2ccccc2C[C@H]1O,RT-D67N T69N K70R M184V T215F K219Q,7295-1 NRTI resistant recombinant,RT activity,EC50,PBMC,0.0014 µM
Cc1cn([C@H]2C[C@H](N=[N+]=[N-])[C@@H](CO)O2)c(=O)[nH]c1=O,RT-L74V,NL4-3,XTT,EC50,CEM + CEM-SS,0.005 µM
Cc1cc(C#Cc2ccccc2)cc(C)c1Oc1ccnc(NC2CCN(Cc3ccc(S(N)(=O)=O)cc3)CC2)n1,F227L + V106A,IIIB,MTT,EC50,MT-4,0.182 µM
Cc1cn([C@H]2C[C@H](N=[N+]=[N-])[C@@H](CO)O2)c(=O)[nH]c1=O,RT-M41L E44D D67N T69D Y118I M184V L210W T215Y,4755-5 NRTI resistant recombinant,RT activity,EC50,PBMC,0.0154 µM
Cc1cn([C@H]2C[C@H](N=[N+]=[N-])[C@@H](CO)O2)c(=O)[nH]c1=O,,IIIB/LAI,antigen,EC50,HuT-78 + HUT 78,0.008 µM
CC(=O)Nc1cccc(C#Cc2cc(C)c(Oc3ccnc(Nc4ccc(C#N)cc4)n3)c(C)c2)c1,Y188L,IIIB,MTT,EC50,MT-4,>0.844 µM
Cc1cn([C@H]2C[C@H](N=[N+]=[N-])[C@@H](CO)O2)c(=O)[nH]c1=O,,9281 CLADE A CLADE A,p24,EC50,PBMC,0.025 µM
C/C=C/CSc1cc(NC(=S)c2ccsc2C)ccc1Cl,RT-T139I,Calanolide A-resistant (RT T139I),XTT,EC50,CEM + CEM-SS,0.4 µM
CC(C)CN(C[C@@H](O)[C@H](Cc1ccccc1)NC(=O)O[C@H]1CCOC1)S(=O)(=O)c1ccc(N)cc1,PR-D30N N88D,NL4-3,p24,EC90,MT-4,0.04 µM
Fc1cccc(F)c1C1SCc2nc3ccccc3n21,RT-L100I T139I,Costatolide-resistant (RT L100I T139I),XTT,EC50,CEM + CEM-SS,>69 µM
COC(=O)[C@H](C)NP(=O)(OC[C@@H]1C=C[C@H](n2cc(C)c(=O)[nH]c2=O)O1)Oc1ccc(Br)cc1,RT-D67N L214F T215D K219Q,BR/92/019 NRTI resistant,p24,EC50,PBMC,0.002 µM
Cc1ccnc2c1NC(=O)c1cccnc1N2C1CC1,RT-D67N K70R Y181C T215Y K219Q,NL4-3(RT-4XAZT+Y181C),cytopathic effect / XTT,EC50,CEM + CEM-SS,0.8 µM
CCOP(=O)(COc1ccc(C[C@H](NC(=O)O[C@H]2CO[C@H]3OCC[C@H]32)[C@H](O)CN(CC(C)C)S(=O)(=O)c2ccc(OC)cc2)cc1)OCC,,IIIB,p24 / ELISA,EC50,MT-2,0.0058 µM
CC(C)=CCN1Cc2cc(Cl)cc3[nH]c(=S)n(c23)C[C@@H]1C,RT-D67N K70R T215Y K219Q,,,EC95,MT-4,0.4 µM
CCCc1cc(=O)oc2c3c(c4c(c12)OC(C)(C)C=C4)O[C@@H](C)[C@H](C)[C@@H]3O,RT-V108I,NL4-3,XTT,EC50,CEM + CEM-SS,0.2 µM

The first 4 rows once more:

{"SMILES": "C#C[C@]1(CO)O[C@@H](n2cnc3c(N)nc(F)nc32)C[C@@H]1O", "mutations": "M184V", "strain": "Clinical isolate", "read by": "single cycle / fluorescence", "measure": "EC50", "cell line": "PBMC", "result": "0.00107 µM"}
{"SMILES": "O=C1N(Cc2ccc(CO)cc2)[C@H](Cc2ccccc2)[C@H](O)[C@@H](O)[C@@H](Cc2ccccc2)N1Cc1ccc(CO)cc1", "strain": "IIIB", "read by": "p24", "measure": "EC50", "cell line": "PBMC", "result": "0.018 µM"}
{"SMILES": "Cc1ccc(S(=O)(=O)N(CC(C)C)C[C@@H](O)[C@H](Cc2ccccc2)NC(=O)O[C@H]2CO[C@H]3OCC[C@H]32)cc1", "mutations": "M200I", "strain": "IIIB", "read by": "p24 / ELISA", "measure": "EC50", "cell line": "MT-2", "result": "0.008 µM"}
{"SMILES": "Cc1ccc(/C=C/c2cc(C)c(Oc3ccnc(Nc4ccc(C#N)cc4)n3)c(C)c2)cc1", "mutations": "RES056", "strain": "IIIB", "read by": "MTT", "measure": "EC50", "cell line": "MT-4", "result": ">8.51 µM"}